Experiment [1] relates to thylakoid membrane, electron transfer reaction of two photosystems, especially photosystem II. Description: effect on plant photosynthesis (mechanism). It is filed as biochemical.
Experiment [2] deals with Eupatorium adenophorum sprengel lamina. Nature of the experiment: pathogenicity test by needle puncture on crofton weed leaf. It is filed as in vivo. As to conditions: 50 μg/g, 48 hours; for toxicity compared with germfree filtrate: P<0.01; for pathogenicity to Eupatorium adenophorum spreng: needle puncture.

On to `CC(=O)C1=C(O)C(CC(C)C)NC1=O` (centres unmarked) [iso-tenuazonic acid], for which, in experiment [1], the “structure and synthesis of membrane protein” value is given as “no effect”. `CCC(C)C1NC(=O)C(C(C)=O)=C1O` (centres unmarked) [tenuazonic acid]: the “structure and synthesis of membrane protein” value in experiment [1] is given as “no effect”.

As for magnesium iso-tenuazonate, in experiment [2], the “toxicity compared with germfree filtrate” value is given as “apparently higher” and the “pathogenicity to Eupatorium adenophorum spreng” value (shortened to “pathogenicity”) is reported as “high pathogenetic”. Take magnesium tenuazonate: in experiment [2], the “toxicity compared with germfree filtrate” value is listed as “apparently higher” and the “pathogenicity” value is listed as “high pathogenetic”.

For the compound magnesium tenuazonate iso-tenuazonate, in experiment [2], the “toxicity compared with germfree filtrate” value is “apparently higher” and the “pathogenicity” value is reported as “high pathogenetic”.

Values taken from US20080280761A1 (priority 2005, published 2008).
